Our source for the inhibition values is ChEMBL document CHEMBL3124763.

Amino acid sequences for entries named in this document (tags omitted).
UniProt P09958, whole entry, looked up: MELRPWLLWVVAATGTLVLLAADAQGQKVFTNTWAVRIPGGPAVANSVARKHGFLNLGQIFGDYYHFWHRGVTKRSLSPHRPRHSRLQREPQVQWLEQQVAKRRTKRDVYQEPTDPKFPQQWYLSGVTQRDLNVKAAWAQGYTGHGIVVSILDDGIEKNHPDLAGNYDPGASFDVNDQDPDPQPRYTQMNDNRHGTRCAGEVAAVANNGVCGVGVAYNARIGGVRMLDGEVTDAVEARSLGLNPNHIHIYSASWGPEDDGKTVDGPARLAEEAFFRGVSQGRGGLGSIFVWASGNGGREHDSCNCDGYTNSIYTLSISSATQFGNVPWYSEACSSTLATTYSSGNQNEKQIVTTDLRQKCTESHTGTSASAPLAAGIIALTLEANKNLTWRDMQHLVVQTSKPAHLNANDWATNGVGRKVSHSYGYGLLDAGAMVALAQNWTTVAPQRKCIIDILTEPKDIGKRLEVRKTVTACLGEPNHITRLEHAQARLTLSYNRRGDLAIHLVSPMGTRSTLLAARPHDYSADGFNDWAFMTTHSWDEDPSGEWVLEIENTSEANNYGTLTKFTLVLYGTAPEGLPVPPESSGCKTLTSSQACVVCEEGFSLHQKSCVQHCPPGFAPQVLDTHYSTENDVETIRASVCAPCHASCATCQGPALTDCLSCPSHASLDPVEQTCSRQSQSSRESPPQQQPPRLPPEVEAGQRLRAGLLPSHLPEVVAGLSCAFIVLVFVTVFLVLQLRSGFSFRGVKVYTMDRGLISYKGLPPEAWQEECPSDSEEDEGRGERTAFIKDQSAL

The target in test [1] is Furin (Homo sapiens) (UniProt P09958). In words: Inhibition of furin (unknown origin) assessed as HA5-mediated membrane fusion at 100 uM after 36 hrs by cell-based luciferase reporter gene assay. In general terms: Reporter assays use an easily measured gene product as a stand-in for the process of interest.
The target is the same in test [2]. In words: Inhibition of furin (unknown origin) assessed as HA5-mediated membrane fusion at 12.5 to 50 uM after 36 hrs by cell-based luciferase reporter gene assay.

The source made the active and inactive calls. The calls are words filed in the database; no cut-off is given here.

The term inhibition denotes how much of the control response was suppressed. For `CC(=O)N[C@@H](CCCNC(=N)N)C(=O)N[C@@H](C)C(=O)N[C@@H](CCCNC(=N)N)C(=O)N[C@@H](CCCNC(=N)N)C(=O)N[C@@H](CCCNC(=N)N)C(=O)N[C@@H](CCCCN)C(=O)N[C@@H](CCCCN)C(=O)N[C@@H](CCCNC(=N)N)C(=O)N[C@H](C(N)=O)[C@@H](C)O`, at Furin (Homo sapiens) [1], the inhibition is 51%. Besides, the inhibition result on Furin (Homo sapiens) [2] was “Active”.

As for `CC(=O)N[C@@H](CCCNC(=N)N)C(=O)N[C@@H](C)C(=O)N[C@@H](CCCNC(=N)N)C(=O)N[C@@H](CCCNC(=N)N)C(=O)N[C@@H](CCCNC(=N)N)C(=O)N[C@@H](CCCCN)C(=O)N[C@@H](CCCCN)C(=O)NN(CCCNC(=N)N)CC(=O)N[C@H](C(N)=O)[C@@H](C)O`, the inhibition on Furin (Homo sapiens) [1] stood at 77%. Consider `CC(=O)N[C@@H](CCCNC(=N)N)C(=O)N[C@@H](C)C(=O)N[C@@H](CCCNC(=N)N)C(=O)N[C@@H](CCCNC(=N)N)C(=O)N[C@@H](CCCNC(=N)N)C(=O)N[C@@H](CCCCN)C(=O)N[C@@H](CCCCN)C(=O)NC/C=C/CNC(=N)N`, for which, on Furin (Homo sapiens) [1], the inhibition was found to be 44%.

For `CC(=O)NN(CCCNC(=N)N)CC(=O)N[C@@H](C)C(=O)N[C@@H](CCCNC(=N)N)C(=O)N[C@@H](CCCNC(=N)N)C(=O)N[C@@H](CCCNC(=N)N)C(=O)N[C@@H](CCCCN)C(=O)N[C@@H](CCCCN)C(=O)NN(CCCNC(=N)N)CC(=O)N[C@H](C(N)=O)[C@@H](C)O`, the inhibition at Furin (Homo sapiens) [1] was 12%. Moreover, the inhibition result at Furin (Homo sapiens) [2] is “Active”.

As for `CC(=O)N[C@@H](CCCNC(=N)N)C(=O)N[C@@H](C)C(=O)N[C@@H](CCCNC(=N)N)C(=O)N[C@@H](CCCNC(=N)N)C(=O)N[C@@H](CCCNC(=N)N)C(=O)N[C@@H](CCCCN)C(=O)N[C@@H](CCCCN)C(=O)NCc1ccc(C(=N)N)cc1`, the inhibition on Furin (Homo sapiens) [1] amounted to 88%.
